Test system: Psoroptes cuniculi
Assay: in vitro immersion assay on the mite Psoroptes cuniculi
Details: adult males, adult females, female nymphs; first 24 hour exposure
Method: A series of in vitro assays were conducted to examine the effects of the compound trans-cinnamic acid ethyl ester on the mite Psoroptes cuniculi. This mite infests rabbits and is very similar to the mite Psoroptes ovis which infests sheep and causes sheep scab.
The mites were taken from the ears of infested rabbits and exposed for 24 hours to the active compound at concentrations of 10, 1 or 0.1 % (V/V). The concentrations were obtained by serial dilution of the compound in 0.05% sodium dodecyl sulphate (SDS).
This is illustrated in Figure 2 of the accompanying drawings.
The LC95 was 6.29% (95% confidence interval 4.98-8.88).
Line (1) represents adult males, line (2) adult females and (3) female nymphs.
Thus, trans-cinnamic acid ethyl ester gives greater than 50% levels of mortality within 24 hours, for all life cycle stages of P. cuniculi after short contact times (1 min) at concentrations of 2.2% (V/V). At one minute contact time, concentrations of greater than 6% (V/V) are required to bring about mortality of greater than 95%. Recent theoretical analysis using simulation modelling (Wall, unpublished) has shown that sustained mortality of greater than 50% per day is required to suppress a growing population of P. ovis.

CCOC(=O)/C=C/c1ccccc1 [trans-cinnamic acid ethyl ester]
mortality of the various life cycle stages: not significantly different
